From PMC8640094, “Diaportones A–C: Three New Metabolites From Endophytic Fungus Diaporthe foeniculina BZM-15” (Frontiers in Chemistry, 2021) come the findings set out here.

This data set deals with SF-268 (CNS cancer). Nature of the data set: MTT cytotoxicity assay, SF-268 cells. It counts as cell-based, human. Particulars: IC50 for LX-2 cell line/IC50 for SF286 cell line. The procedure: The cytotoxicity of all compounds against three human tumor cell lines, SF-268 (CNS cancer), MCF-7 (breast cancer), and HepG2 (hepatoma cancer), and normal cell line LX-2 was tested using the MTT assay. Adriamycin was used as a positive control. All cells were seeded into 96-well plates at 5 × 10^4 cells/ml and incubated at 37°C under a 5% CO2 atmosphere for 24 h. Then, the tested compounds were added. After 72 h, MTT solution was added into each well, which was further incubated. The cell-free supernatant was removed and formazan crystals were subsequently dissolved in DMSO. Optical density (OD) was recorded at 490 nm on a microplate reader to calculate the IC50 values.
(In general: Tetrazolium assays rely on reduction of a dye to a coloured formazan, in cell work by metabolically active cells.)

Take `CC(C)[C@@H](C)/C=C/[C@@H](C)[C@H]1CCC(=O)[C@]23CC(=O)C4=CC(=O)CC[C@]4(C)[C@H]2CC[C@]13C` [compound 7, dankasterone A]: the “SI Values (safety index)” value is more than 6.
